Data reported in PubChem BioAssay AID1721 (National Center for Advancing Translational Sciences (NCATS), 2009).
The list shows a part of the results, in another mix than the full data. Some structures show a salt or complex split into parts, the way the source records it. Calls of active or inactive are those of the source. Calls follow the shape of the dose curve; as a rule, active = well fitted inhibition curve with a large enough effect; inconclusive = small, poorly fitted or top-dose-only effect, or another doubt; inactive = no such curve, though single readings can be large or run the other way.

The chains behind the UniProt entries cited, without tags or fusion partners.
UniProt Q27686, whole entry: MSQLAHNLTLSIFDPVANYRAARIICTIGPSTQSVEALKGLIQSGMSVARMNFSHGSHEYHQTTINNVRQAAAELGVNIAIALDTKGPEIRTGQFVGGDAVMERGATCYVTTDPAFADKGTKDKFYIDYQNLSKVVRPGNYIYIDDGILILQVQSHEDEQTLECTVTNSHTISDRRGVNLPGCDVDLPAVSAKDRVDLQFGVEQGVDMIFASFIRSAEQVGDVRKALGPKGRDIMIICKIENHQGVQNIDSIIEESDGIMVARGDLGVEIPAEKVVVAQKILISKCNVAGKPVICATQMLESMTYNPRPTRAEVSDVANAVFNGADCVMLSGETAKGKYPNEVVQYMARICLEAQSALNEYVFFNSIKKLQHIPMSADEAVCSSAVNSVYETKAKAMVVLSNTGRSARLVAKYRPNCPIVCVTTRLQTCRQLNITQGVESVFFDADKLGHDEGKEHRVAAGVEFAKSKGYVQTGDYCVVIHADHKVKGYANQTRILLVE

What follows are molecules tested against Pyruvate kinase (Leishmania mexicana) (UniProt Q27686) (assay: qHTS Assay for Inhibitors of Leishmania Mexicana Pyruvate Kinase (LmPK)). Settings: purified LmPK, Kinase-Glo ATP luminescence, 1 h; at 57.5 µM (top of the series).
Text: NIH Chemical Genomics Center [NCGC] Malcolm Walkinshaw, Hugh Morgan, Linda Gilmore University of Edinburgh, UK MLPCN Grant: 1 R03 MH085697-01 NCGC Assay Overview: Pyruvate kinase (L. Mexicana) (LmPK) enzyme was supplied as a highly purified (>95% pure) sulphate-free preparation from University of Edinburgh, UK and assayed for its ability to generate ATP from ADP using phosphoenolpyruvate (PEP) as a substrate. ATP generation was detected in a coupled reaction by luciferase-mediated luminescence, an ATP-dependent process. […] The enzyme was assayed at an intermediate level of activity to screen for both inhibitors and activators.
NCGC Assay Protocol Summary: Three uL of enzyme mix (kept on ice) in assay buffer (50 mM Imidazole pH7.2, 50 mM KCl, 7 mM MgCl2, 0.01% Tween 20, 0.05% BSA) containing PEP (0.5 mM final concentration) and LmPK (0.1 nM final concentration) was dispensed into white solid bottom 1,536 well microtiter plates. 23 nL of compound were delivered by a pin tool and 1 uL of ADP mix in assay buffer (r.t; 0.1 mM final ADP concentration) was added. Plates were incubated at room temperature for 1 hour. Two uL of detection mix (Kinase-Glo, Promega; at 4 degree Celsius protected from light) was added and luminescence read by a ViewLux (Perkin Elmer) at 1 second exposure/plate. Data were normalized to the uninhibited and AC100 inhibition (no enzyme). To monitor activation, the first column contained a five-fold concentration of LmPK (0.5 nM).
% is scaled to controls: 0 for no effect and ±100 for the full control effect.

Structure (SMILES)	activity change, negative = inhibition
CCOC(=O)C(CC)C1=NC(C)(C)Cc2ccccc21.O=[N+]([O-])c1cc([N+](=O)[O-])c(O)c([N+](=O)[O-])c1 (configuration not stated)	inactive: -2.94%
N/C(=N\O)c1c(N)no[n+]1[O-]	inactive: 4.02%
O=C(O)c1cccc(Nc2c([N+](=O)[O-])cc([N+](=O)[O-])cc2[N+](=O)[O-])c1	inactive: -1.59%
O=[N+]([O-])c1cc([N+](=O)[O-])c(OC2CCCCC2O)c([N+](=O)[O-])c1 (configuration not stated)	inactive: 7.79%
COc1ccc2c(c1O)-c1c(O)c(OC)cc3c1[C@H](C2)[N+](C)(C)CC3.O=[N+]([O-])c1cc([N+](=O)[O-])c([O-])c([N+](=O)[O-])c1[O-]	inactive: 0.381%
O=C(OC1CN2CCC1CC2)c1ccc([N+](=O)[O-])cc1 (configuration not stated)	inactive: 3.1%
O=[N+]([O-])c1cc([N+](=O)[O-])c(NCC2CCS(=O)(=O)C2)c([N+](=O)[O-])c1 (configuration not stated)	inactive: 4.93%
